Data taken from publication PMC2837848.

Key:
Assay in all cases: purified protein
O=C(O)c1cccnc1C(=O)O = settings: co-substrate PRPP
O=C(O)c1cccnc1 = settings: co-substrate PRPP
[1] = tested on: O=P(O)(O)OC[C@H]1O[C@H](OP(=O)(O)OP(=O)(O)O)[C@H](O)[C@@H]1O; settings: co-substrate QA

QAPRTase (Salmonella typhimurium quinolinic acid phosphoribosyltransferase) (Salmonella enterica subsp. enterica serovar Typhimurium str. LT2; K186A)
Km (O=C(O)c1cccnc1C(=O)O): 1478 ± 441 µM
kcat (O=C(O)c1cccnc1C(=O)O): 0.0016 s⁻¹
kcat/Km (O=C(O)c1cccnc1C(=O)O): 1.1 M⁻¹ s⁻¹
Km (O=C(O)c1cccnc1): 151 ± 13 µM
kcat (O=C(O)c1cccnc1): 0.048 s⁻¹
kcat/Km (O=C(O)c1cccnc1): 320 M⁻¹ s⁻¹
Km [1]: 2181 ± 500 µM
kcat [1]: 0.0016 s⁻¹
kcat/Km [1]: 0.73 M⁻¹ s⁻¹

QAPRTase (Salmonella typhimurium quinolinic acid phosphoribosyltransferase) (Salmonella enterica subsp. enterica serovar Typhimurium str. LT2; R119A)
Km (O=C(O)c1cccnc1C(=O)O): 136 ± 20 µM
kcat (O=C(O)c1cccnc1C(=O)O): 0.00024 s⁻¹
kcat/Km (O=C(O)c1cccnc1C(=O)O): 1.5 M⁻¹ s⁻¹
Km [1]: 3138 ± 800 µM
kcat [1]: 0.00024 s⁻¹
kcat/Km [1]: 0.064 M⁻¹ s⁻¹
